According to US11638424B2, “Mosquito attractant formulations and uses thereof” (priority 2017, dated 2023):

Test system: RBCs
Assay: Volatile collection (SPME) and GC-MS analysis of RBC headspace
Assay type: cell-based, Human
Procedure: RBCs (1 ml) were transferred to 4 ml glass vials closed with auto-sampler screw caps, and equilibrated in a thermostat at 38° C. for 15 min. Then, 2.5 μl of HMBPP or Nanopure water were added to the RBCs samples (final concentration: 10 μM HMBPP per sample). Volatiles were collected from the headspace using solid phase micro-extraction (SPME; Supelco, Bellmonte, Pa., USA) (M. J. Yang, el al., J. Chem. Educ., 74, 1130-1132 (1997) and A. K. Borg-Karlson and R. Mozuraitis, Naturforsch., C. 51, 599-602 (1996)). Prior to headspace exposure, the polydimethylsiloxane/divinylbenzene/carboxene-coated SPME fiber (grey) was conditioned for 5 min at 250° C. in a gas chromatograph (GC) injector (6890, Agilent Technologies, Santa Clara, Calif., USA). Volatiles were collected for 30 min (n=5). The volatiles on SPME fiber were then desorbed in the injector (splitless mode, 0.5 min, 225° C.) of a combined Agilent 7890 GC and 5977 mass spectrometer (MS). Helium was used as the carrier gas with a constant flow of 35 cm min^−1. The GC was equipped with a DB-wax coated fused silica capillary column (J&W Scientific, Folsom, Calif., USA; 60 m×0.25 mm i.d., d.f.=0.25 μm). The GC oven temperature was programmed from 30° C. (3 min hold) to 225° C., increasing at 8° C. min^−1, then isothermal for 10 min. Electron ionisation mass spectra were determined at 70 eV with the ion source kept at 230° C. and mass spectra were obtained at mass to charge ratio (m/z) 29-400. Chromatographic profiles of volatiles, which were sampled from RBCs and hRBCs, were compared. The compounds that were more abundant in the hRBC samples were identified according to their retention indices (Retention Index) and mass spectra in comparison with the NIST library (Agilent Technologies) and authentic standards. A similar protocol was used for the quantification of CO2, with the mass spectral data and GC retention times being compared with emission from frozen CO2. The relative amounts of CO2 in arbitrary units were determined from the areas of the respective chromatogram peaks using single ion display mode at m/z 44±0.5 Da. The amounts of identified compounds were quantified by the use of extracted ion chromatograms, since they are very minute. The compounds identified were the only volatiles identified in the SPME samples. The estimations were based on the very same quantifications given in ‘arbitrary area units’. The SPME volatile collections were made under very controlled conditions: the same volume of ‘RBCs’ and the very same temperature, which gives the same % RH in the vials, and under these very same conditions the affinities of the volatiles to the SPME fiber coating are the same.

CCCCCCCCC=O [nonanal]
proportion of compound identified in the headspace for hRBCs, % by weight (of the combined compounds): 35 % by weight

CCCCCCCCCC=O [decanal]
proportion of compound identified in the headspace for hRBCs, % by weight (of the combined compounds): 12 % by weight

C=C(C)C1CC=C(C)CC1 (stereo not shown) [limonene]
proportion of compound identified in the headspace for hRBCs, % by weight (of the combined compounds): 18 % by weight

CCCCCCCC=O [octanal]
proportion of compound identified in the headspace for hRBCs, % by weight (of the combined compounds): 23 % by weight
